Record: PubChem BioAssay AID1259414 (Drosophila RNAi Screening Center, 2018)

Purpose: 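Host factors increasing or decreasing Wolbachia levels in cultured fly cells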 (primary screen)
Cell system: Drosophila JW18 cells infected with Wolbachia
Knock-down reagent: long dsRNA against Drosophila genes, 0.25 µg dsRNA per well of a 384-well plate
Duration: 5 days
Treatment: cells persistently infected with Wolbachia before knock-down; no added drug
Detection: 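Imaged fluorescence in situ signal for Wolbachia 23S rRNA per DAPI-counted host cell, given as a robust z-score within each plate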
Direction: Wolbachia per cell robust z: higher = more Wolbachia per host cell than the plate typical
Rule for the call: 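Active if absolute robust z reaches 1.5 in two or more of three replicates, leaving out multi- or no-target dsRNAs, genes unexpressed in JW18 and A1 wells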
The screen tested about 24,000 reagents; this is an unselected part of those with a known target gene and a result. Of all reagents, about 1,210 (5%) got an active call. 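Inactive calls also include excluded dsRNAs with several or no targets, genes unexpressed in JW18, and well A1, regardless of score.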 A number with no mark means an inactive call.

Pur-alpha (Purine-rich binding protein-alpha) [DRSC17166] | Wolbachia per cell robust z, rep 1 = -1.49; Wolbachia per cell robust z, rep 2 = 0.59; Wolbachia per cell robust z, rep 3 = -1.61
Upf3 [DRSC04092] | Wolbachia per cell robust z, rep 1 = 0.681; Wolbachia per cell robust z, rep 2 = -1.92; Wolbachia per cell robust z, rep 3 = -0.319
Upf3 [DRSC27316] | Wolbachia per cell robust z, rep 1 = 0.973; Wolbachia per cell robust z, rep 2 = -4.34; Wolbachia per cell robust z, rep 3 = 0.83
shot (short stop) [DRSC05459] | Wolbachia per cell robust z, rep 1 = -0.533; Wolbachia per cell robust z, rep 2 = -0.713; Wolbachia per cell robust z, rep 3 = -0.553
shot (short stop) [DRSC05460] | Wolbachia per cell robust z, rep 1 = -1.41; Wolbachia per cell robust z, rep 2 = -3.79; Wolbachia per cell robust z, rep 3 = 1.52
shot (short stop) [DRSC07682] | Wolbachia per cell robust z, rep 1 = -1.9 (active); Wolbachia per cell robust z, rep 2 = -1.88; Wolbachia per cell robust z, rep 3 = -3.96
shot (short stop) [DRSC25070] | Wolbachia per cell robust z, rep 1 = 0.516; Wolbachia per cell robust z, rep 2 = 1.36; Wolbachia per cell robust z, rep 3 = 0.271

No new results follow: an excerpt of the list.
Upf3 [DRSC04092] | Wolbachia per cell robust z, rep 1 = 0.681; Wolbachia per cell robust z, rep 2 = -1.92; Wolbachia per cell robust z, rep 3 = -0.319
Upf3 [DRSC27316] | Wolbachia per cell robust z, rep 1 = 0.973; Wolbachia per cell robust z, rep 2 = -4.34; Wolbachia per cell robust z, rep 3 = 0.83

Additional reagents:
CG7300 [DRSC03044] | Wolbachia per cell robust z, rep 1 = -0.0203; Wolbachia per cell robust z, rep 2 = 0.494; Wolbachia per cell robust z, rep 3 = -0.131
CG7300 [DRSC28239] | Wolbachia per cell robust z, rep 1 = 1.68; Wolbachia per cell robust z, rep 2 = -0.629; Wolbachia per cell robust z, rep 3 = -0.42
pie (pineapple eye) [DRSC03590] | Wolbachia per cell robust z, rep 1 = 0.323; Wolbachia per cell robust z, rep 2 = -0.823; Wolbachia per cell robust z, rep 3 = -0.0181
CG34125 [DRSC00850] | Wolbachia per cell robust z, rep 1 = 0.0117; Wolbachia per cell robust z, rep 2 = -0.633; Wolbachia per cell robust z, rep 3 = -0.333
CG30281 [DRSC04528] | Wolbachia per cell robust z, rep 1 = 0.523; Wolbachia per cell robust z, rep 2 = -0.691; Wolbachia per cell robust z, rep 3 = 0.127
CG30281 [DRSC26805] | Wolbachia per cell robust z, rep 1 = 0.00429; Wolbachia per cell robust z, rep 2 = -1.47; Wolbachia per cell robust z, rep 3 = -0.291
